Results of unrelated studies side by side (data: NIAID ChemDB).

Common to all: tests on isolated targets; organism: HIV-1; target: Protease; read-out: IC50

ICn: concentration for n% inhibition.

CC(C)(C)NC(=O)c1ccccc1C[C@@H](O)[C@H](Cc1ccccc1)NC(=O)[C@H](CO)NC(=O)OCc1ccccc1 ; read by: fluorescence ; result: 0.008 µg/mL
Cc1cnccc1C(=O)N[C@H](CSc1ccccc1)[C@@H](O)CN1CCN(Cc2cccnc2)C[C@H]1C(=O)NC(C)(C)C ; read by: fluorescence ; result: 0.073 µg/mL
COC(=O)[C@]12CCC(C)(C)C[C@H]1C1=CC[C@@H]3[C@@]4(C)CC[C@H](O)C(C)(C)[C@@H]4CC[C@@]3(C)[C@]1(C)CC2 ; read by: HPLC ; result: 20 µM
CC(C)(C)OC(=O)N[C@@H](Cc1ccccc1)C(=O)NC[C@H](NC(=O)[C@H](Cc1ccccc1)NC(=O)OC(C)(C)C)C(=O)O ; read by: HPLC ; result: >10 µM
Cc1cccc(C)c1OCC(=O)N[C@@H](Cc1ccccc1)C[C@H](O)[C@H](Cc1ccccc1)NC(=O)COc1c(C)cccc1C ; read by: fluorescence ; result: 0.028 µM
CSC[C@H](NC(=O)COc1cccc2ccccc12)C(=O)N[C@@H](Cc1ccccc1)[C@H](O)C(=O)N1CSC(C)(C)[C@H]1C(=O)NC(C)(C)C ; result: <0.05 µM
CC(C)(C)NC(=O)c1ccccc1C[C@@H](O)[C@H](CC1CCCCC1)NC(=O)[C@H](CC(N)=O)NC(=O)c1cc(Cl)c2ccccc2n1 ; read by: fluorescence ; result: 0.00077 µg/mL
CC(C)[C@H](NC(=O)[C@H](Cc1ccccc1)C[C@H](O)[C@H](Cc1ccccc1)NC(=O)OC(C)(C)C)C(=O)N[C@@H](Cc1ccccc1)C(=O)N1CCOCC1 ; read by: fluorescence ; result: 0.009 µM
CC(C)(C)NC(=O)c1ccccc1C[C@@H](O)[C@H](Cc1ccccc1)NC(=O)[C@H](CC(=O)NNc1ccccn1)NC(=O)c1ccc2ccccc2n1 ; read by: fluorescence ; result: 0.00016 µg/mL
Cc1c(OP(=O)(O)O)cccc1C(=O)N[C@@H](CSc1ccccc1)[C@H](O)CN1C[C@H]2CCCC[C@H]2C[C@H]1C(=O)NC(C)(C)C ; read by: fluorescence ; result: 0.004 µg/mL
CC(C)[C@H](NC(=O)[C@H](Cc1ccccc1)C[C@H](O)[C@H](Cc1ccccc1)NC(=O)OC(C)(C)C)C(=O)NCCN(C)C ; read by: fluorescence ; result: 0.003 µM
CC(C)(C)NC(=O)[C@@H]1C[C@@H]2CCCC[C@@H]2CN1C[C@H](O)[C@H](Cc1ccccc1)NC(=O)c1cccc(Cl)c1Cl ; read by: fluorescence ; result: 0.0487 µg/mL
O=Cc1ccc(OCC(=O)N[C@@H](Cc2ccccc2)C[C@@H](O)[C@H](Cc2ccccc2)NC(=O)COc2ccc(C=O)cc2)cc1 ; read by: fluorescence ; result: 23 µM
CC(C)CCN(C[C@@H](O)[C@H](Cc1ccccc1)NC(=O)OCc1ccccc1)S(=O)(=O)C(F)(F)F ; result: <10 µM
O=C(N[C@@H](Cc1ccc([N+](=O)[O-])cc1)C(=O)NCC[C@@H](CO)NC(=O)[C@H](Cc1ccc([N+](=O)[O-])cc1)NC(=O)OCC1c2ccccc2-c2ccccc21)OCC1c2ccccc2-c2ccccc21 ; read by: HPLC ; result: 2.11 µM
CC(C)[C@H](NC(=O)COc1cccc2cnccc12)C(=O)N[C@@H](Cc1ccccc1)[C@H](O)C(=O)N1CCC[C@H]1C(=O)NC(C)(C)C ; result: <0.05 µM
CC(=O)c1ccc(OCC(=O)N[C@@H](Cc2ccccc2)C[C@@H](O)[C@H](Cc2ccccc2)NC(=O)COc2ccc(C(C)=O)cc2)cc1 ; read by: fluorescence ; result: 80 µM
COc1ccc(C[C@H](C[C@H](O)[C@H](Cc2ccccc2)NC(=O)OC(C)(C)C)C(=O)N[C@H](C(=O)NCCN(C)C)C(C)C)cc1OC ; read by: fluorescence ; result: 0.008 µM
O=C(COc1ccccc1)N[C@@H](Cc1ccccc1)C[C@H](O)[C@H](Cc1ccccc1)NC(=O)COc1ccccc1 ; read by: fluorescence ; result: 5 µM
CC1(C)CC[C@]2(C(=O)O)CC[C@]3(C)C(=CCC4[C@@]5(C)CC[C@H](OC(=O)C(=O)O)C(C)(C)C5CC[C@]43C)C2C1 ; read by: HPLC ; result: 20 µM
CC(C)[C@H](NC(=O)[C@@H]1CCCN1C(=O)[C@@H](O)[C@H](Cc1ccccc1)NC(=O)[C@H](CC(N)=O)NC(=O)OCc1ccccc1)C(=O)NCC1CCCCC1 ; result: <5 µM
CC(C)CCN(C[C@@H](O)[C@H](Cc1ccccc1)NC(=O)OCc1ccccc1)S(=O)(=O)c1cccs1 ; result: 0.1 µM
CC(C)(C)OC(=O)N[C@@H](Cc1cccc2ccccc12)C(=O)NCC[C@@H](CO)NC(=O)[C@H](Cc1cccc2ccccc12)NC(=O)OC(C)(C)C ; read by: HPLC ; result: 4.4 µM
COc1ccc(C[C@H](C[C@H](O)[C@H](Cc2ccccc2)NC(=O)OC(C)(C)C)C(=O)N[C@H](C(=O)N[C@@H](Cc2ccccc2)C(=O)N2CCOCC2)C(C)C)cc1OC ; read by: fluorescence ; result: 0.007 µM
CC[C@H](C)[C@H](NC(=O)[C@@H]1CCCN1C(=O)[C@H](O)[C@H](Cc1ccccc1)NC(=O)[C@H](CC(N)=O)NC(=O)CCc1ccccc1)C(=O)N[C@H](C(N)=O)C(C)C ; result: <5 µM
CC[C@H](C)[C@H](NC(=O)CN(C)C)C(=O)N[C@@H](Cc1ccccc1)[C@H](O)CN(CC(C)C)S(=O)(=O)c1ccc(OC)cc1 ; result: 0.002 µM
CC(C)C[C@H](N)C(=O)N[C@H](C=O)CCC(=O)O ; read by: HPLC ; result: <1000 µM
COCCNC(=O)[C@@H](NC(=O)[C@H](Cc1ccc(O)cc1)C[C@H](O)[C@H](Cc1ccccc1)NC(=O)OC(C)(C)C)C(C)C ; read by: fluorescence ; result: 0.001 µM
CC(C)C[C@@H](C=O)NC(=O)[C@H](CO)NC(=O)[C@H](Cc1ccc(O)cc1)NC(=O)[C@H](CCC(=O)O)NC(=O)[C@H](CC(C)C)NC(=O)[C@@H](N)CC(C)C ; read by: HPLC ; result: 0.015 µM
CC(C)(C)NC(=O)[C@@H]1CSCN1C(=O)[C@@H](O)[C@H](Cc1ccccc1)NC(=O)[C@@H](NC(=O)COc1cccc2ccccc12)C(C)(C)S(C)(=O)=O ; result: <0.05 µM
CC(C)C[C@H](NC(=O)OC(C)(C)C)C(=O)NCC[C@@H](CO)NC(=O)[C@H](CC(C)C)NC(=O)OC(C)(C)C ; read by: HPLC ; result: 2.4 µM
COCCNC(=O)[C@@H](NC(=O)[C@H](Cc1ccc2c(c1)OCO2)C[C@H](O)[C@H](Cc1ccccc1)NC(=O)OC(C)(C)C)C(C)C ; read by: fluorescence ; result: <0.0005 µM
CC1(C)CC[C@]2(C(=O)O)CC[C@]3(C)C(=CCC4[C@@]5(C)CC[C@H](OC(=O)CCCC(=O)O)C(C)(C)C5CC[C@]43C)C2C1 ; read by: HPLC ; result: 4 µM
CC(C)CN(C[C@@H](O)[C@H](Cc1ccccc1)NC(=O)OCc1cccnc1)S(=O)(=O)c1ccccc1 ; result: 0.005 µM
CC1(C)CC[C@]2(C(=O)O)CC[C@]3(C)C(=CCC4[C@@]5(C)CC[C@H](NC(=O)CCCCC(=O)O)C(C)(C)C5CC[C@]43C)C2C1 ; read by: HPLC ; result: 3 µM
CC(C)(C)OC(=O)N[C@@H](CO)C(=O)N[C@@H](Cc1ccccc1)[C@@H](O)C(=O)NCC1CCCCC1 ; result: >1000 µM
COc1ccc(S(=O)(=O)N(CC(C)C)C[C@@H](O)[C@H](Cc2ccccc2)NC(=O)CN(CC(N)=O)[C@H]2CCOC2)cc1OC ; read by: substrate cleavage / FRET ; result: >1 µM
O=C(N[C@H](C(=O)NCC[C@@H](CO)NC(=O)[C@@H](NC(=O)OCC1c2ccccc2-c2ccccc21)[C@H](O)c1ccccc1)[C@H](O)c1ccccc1)OCC1c2ccccc2-c2ccccc21 ; read by: HPLC ; result: 0.72 µM
CC1(C)CC[C@]2(C(=O)O)CC[C@]3(C)C(=CC[C@@H]4[C@@]5(C)CC/C(=N\O)C(C)(C)[C@@H]5CC[C@]43C)[C@@H]2C1 ; read by: HPLC ; result: 5.5 µM
O=C(N[C@@H](Cc1ccccc1)C(=O)NCC[C@@H](CO)NC(=O)[C@H](Cc1ccccc1)NC(=O)OCc1ccccc1)OCc1ccccc1 ; read by: HPLC ; result: 1.8 µM
O=C(N[C@@H](Cc1ccccc1)C(=O)N[C@H](CO)CCCNC(=O)[C@@H](Cc1ccccc1)NC(=O)OCC1c2ccccc2-c2ccccc21)OCC1c2ccccc2-c2ccccc21 ; read by: HPLC ; result: 0.54 µM
CC(=O)Oc1cc(OC(C)=O)cc(Oc2c(OC(C)=O)cc3c(c2OC(C)=O)Oc2cc(Oc4c(OC(C)=O)cc(OC(C)=O)cc4OC(C)=O)c(OC(C)=O)c(OC(C)=O)c2O3)c1 ; read by: HPLC ; result: >100 µM
CC(C)(C)OC(=O)N[C@@H](Cc1ccccc1)C(=O)NC[C@@H](CO)NC(=O)[C@H](Cc1ccccc1)NC(=O)OC(C)(C)C ; read by: HPLC ; result: 9.7 µM
CC(C)(C)OC(=O)N[C@@H](Cc1ccccc1)C(=O)NCCC[C@@H](CO)NC(=O)[C@H](Cc1ccccc1)NC(=O)OC(C)(C)C ; read by: HPLC ; result: 1.55 µM
C=C(C)[C@@H]1CC[C@]2(C(=O)OC)CC[C@]3(C)[C@H](CC[C@@H]4[C@@]5(C)CC[C@H](OC(=O)CCC(=O)OC)C(C)(C)C5CC[C@]43C)[C@@H]12 ; read by: HPLC ; result: 40 µM
CC(C)(C)OC(=O)N[C@H](C(=O)NCC[C@@H](CO)NC(=O)[C@@H](NC(=O)OC(C)(C)C)C(O)c1ccccc1)C(O)c1ccccc1 ; read by: HPLC ; result: 1.38 µM
CC(C)(C)NC(=O)c1ccccc1C[C@@H](O)[C@H](Cc1ccccc1)NC(=O)[C@H](CC(N)=O)C(N)C(=O)c1ccc2ccccc2c1 ; read by: fluorescence ; result: 0.0071 µg/mL
CC(C)(C)NC(=O)[C@@H]1CC(O)CN1C(=O)[C@@H](O)[C@H](Cc1ccccc1)NC(=O)[C@H](CS(C)(=O)=O)NC(=O)COc1cccc2ccccc12 ; result: <0.05 µM
COc1ccc(S(=O)(=O)N(CC(C)C)C[C@@H](O)[C@H](Cc2ccccc2)NC(=O)c2ccccc2CS(C)(=O)=O)cc1 ; result: <1 µM
Cc1c(O)cccc1C(=O)N[C@@H](CSc1ccccc1)[C@H](O)CN1C[C@H]2SCC[C@H]2C[C@H]1C(=O)NC(C)(C)C ; read by: fluorescence ; result: 0.0003 µg/mL
CSC(C)(C)[C@H](NC(=O)CN(C)C)C(=O)N[C@@H](Cc1ccccc1)[C@H](O)CN(CCC(C)C)S(=O)(=O)c1ccccc1 ; result: 0.0032 µM
CC(C)(C)NC(=O)[C@@H]1CN(Cc2cccnc2)CCN1C[C@H](O)[C@@H](CSc1ccccc1)NC(=O)c1cccc2ncccc12 ; read by: fluorescence ; result: 0.0054 µg/mL
O=C(N[C@@H](Cc1ccccc1)C(=O)NCCCC[C@@H](CO)NC(=O)[C@H](Cc1ccccc1)NC(=O)OCC1c2ccccc2-c2ccccc21)OCC1c2ccccc2-c2ccccc21 ; read by: HPLC ; result: 1.39 µM
COc1cccc(C(=O)N[C@@H](Cc2ccccc2)[C@H](O)CN2C[C@H]3CCCC[C@H]3C[C@H]2C(=O)NC(C)(C)C)c1C ; read by: fluorescence ; result: 0.0083 µg/mL
CC(C)C[C@H](N)C(=O)N[C@@H](CCC(=O)O)C(=O)N[C@@H](Cc1ccc(O)cc1)C(=O)N[C@H](C=O)CO ; read by: HPLC ; result: 4.8 µM

Conditions beyond the fields shown may differ between rows.